{
  "source": "paper PMC9612231",
  "about": "“Antileishmanial Anthracene Endoperoxides: Efficacy In Vitro, Mechanisms and Structure-Activity Relationships” (Molecules, 2022)",
  "assay": "EPR spin trapping with DMPO after reaction of AcEP with FeSO4",
  "conditions": "for DMPO spin adduct Assignment / DMPO spin adduct aH (proton hyperfine coupling constant) / DMPO spin adduct aN (nitrogen hyperfine coupling constant) / DMPO spin adduct aN/aH: reductant Fe^2+, WINSIM simulation of EPR spectra",
  "note": "Values joined by “and” are separate entries in the source; they are usually repeats but may differ in a detail not shown here. Equal entries are not always repeated. “Also recorded” adds a separate entry of the source.",
  "data": [
    {"compound": "CC(=O)OCC1OC(C23C=C(C(C)(C)C)C(C4OC(COC(C)=O)C(OC(C)=O)C(OC(C)=O)C4OC(C)=O)(OO2)c2ccccc23)C(OC(C)=O)C(OC(C)=O)C1OC(C)=O", "note": "(stereo not shown) [MB359EP]", "values": [
      {"measurement": "DMPO spin adduct Assignment", "value": "DMPO/^●C"},
      {"measurement": "DMPO spin adduct aH (proton hyperfine coupling constant)", "value": 22.8, "unit": "G"},
      {"measurement": "DMPO spin adduct aN (nitrogen hyperfine coupling constant)", "value": 16.1, "unit": "G"},
      {"measurement": "DMPO spin adduct aN/aH", "value": 0.70}
    ]},
    {"compound": "c1ccc(C23OOC(c4ccccn4)(c4ccccc42)c2ccccc23)nc1", "note": "[oPyAcEP]", "values": [
      {"measurement": "DMPO spin adduct Assignment", "value": "DMPO/^●C"},
      {"measurement": "DMPO spin adduct aH (proton hyperfine coupling constant)", "value": 23.3, "unit": "G"},
      {"measurement": "DMPO spin adduct aN (nitrogen hyperfine coupling constant)", "value": 15.7, "unit": "G"},
      {"measurement": "DMPO spin adduct aN/aH", "value": 0.67}
    ]},
    {"compound": "CC(=O)OCC1OC(OC23OOC(c4ccccc42)c2ccccc23)C(OC(C)=O)C(OC(C)=O)C1OC(C)=O", "note": "(stereo not shown) [MonoGluAcEP]", "values": [
      {"measurement": "DMPO spin adduct Assignment", "value": "DMPO/^●C; also recorded: DMPO/^●OH"},
      {"measurement": "DMPO spin adduct aH (proton hyperfine coupling constant)", "value": "23.9 G and 14.5 G"},
      {"measurement": "DMPO spin adduct aN (nitrogen hyperfine coupling constant)", "value": "15.8 G and 15.0 G"},
      {"measurement": "DMPO spin adduct aN/aH", "value": "0.66 and 1.03"}
    ]},
    {"compound": "CC(C)(C)c1ccc2c(c1)C1(c3cccnc3)OOC2(c2cccnc2)c2ccccc21", "note": "(stereo not shown) [mPyBuAcEP]", "values": [
      {"measurement": "DMPO spin adduct detection", "setting": "reaction with iron, DMPO spin trap", "value": "no DMPO spin adduct could be detected"}
    ]}
  ]
}
